Compound potency records, mixed from different reports. Data source: NIAID ChemDB in PubChem.

All rows: target-level tests; species: Hepatitis C virus; target: Nonstructural protein 3 NTPase/helicase; read-out: IC50

Lines come from different laboratories, so protocols vary. Two numbers with a dash give a range or band. An empty or dashed field is not shown. ICn: concentration for n% inhibition.

smiles | method | result
c1cc(CN2CCC(C3=N[C@@H]4CCCC[C@H]4N3)CC2)ccc1CN1CCC(C2=N[C@@H]3CCCC[C@H]3C2)CC1 | - | 7 µM
O=C(O)[C@@H](Cc1ccccc1)N(Cc1ccc(-c2ccccc2C(F)(F)F)o1)C(=O)c1ccccc1F | HPLC | 5–20 µM
NC(=O)c1ncn([C@@H]2O[C@H](COC(=O)c3ccc(S(=O)(=O)F)cc3)[C@@H](O)[C@H]2O)n1 | - | >1000 µM
O=C(c1ccc(C(=O)N2CCC(c3nc4ccccc4[nH]3)CC2)cc1)N1CCC(c2nc3ccccc3[nH]2)CC1 | - | 10 µM
Clc1c(Cl)c(Cl)c2n[nH]nc2c1Cl | - | 380 µM
O=C(O)[C@@H](Cc1ccccc1)N(Cc1ccc(-c2cc3ccccc3o2)cc1)C(=O)c1ccc(Cl)cc1Cl | HPLC | 5–20 µM
Nc1ncnc2c1ncn2[C@@H]1O[C@H](COC(=O)c2ccc(S(=O)(=O)F)cc2)[C@@H](O)[C@H]1O | - | >1000 µM
O=C(CCCCC(=O)Nc1nc2ccccc2[nH]1)Nc1nc2ccccc2[nH]1 | - | >25 µg/mL
O=C(O)[C@@H](Cc1ccccc1)N(Cc1ccc(-c2ccccc2C(F)(F)F)o1)C(=O)c1ccccc1C(F)(F)F | HPLC | 5–20 µM
O=C(CCCCCCCC(=O)Nc1nc2ccccc2[nH]1)Nc1nc2ccccc2[nH]1 | - | >25 µg/mL
CC(=O)O[C@H]1C(=O)[C@@]2(C)[C@H]([C@H](OC(=O)c3ccccc3)[C@]3(O)C[C@H](OC(=O)[C@H](O)[C@@H](NC(=O)c4ccccc4)c4ccccc4)C(C)=C1C3(C)C)[C@]1(OC(C)=O)CO[C@@H]1C[C@@H]2O | - | 17 µM
COc1cccc2c1C(=O)c1c(O)c3c(c(O)c1C2=O)C[C@@](O)(C(C)=O)C[C@@H]3O[C@H]1C[C@H](N)[C@H](O)[C@H](C)O1 | - | 57 µM
OC[C@H]1O[C@@H](n2cnc3cc(Br)c(Br)cc32)[C@H](O)[C@@H]1O | - | 320 µM
CN1CCN(CCCN2c3ccccc3Sc3ccc(C(F)(F)F)cc32)CC1 | - | 105 µM
Cc1ccc2nc(-c3ccc(NC(=O)CCC(=O)Nc4ccc(-c5nc6ccc(C)cc6s5)cc4)cc3)sc2c1 | - | >25 µg/mL
N#Cc1cccc(C(=O)N(Cc2ccc(-c3ccccc3C(F)(F)F)o2)[C@H](Cc2ccccc2)C(=O)O)c1 | HPLC | <5 µM
Nc1ccc(-c2nc3ncccc3o2)cc1 | - | >25 µg/mL
Nc1nc2ncn(CCCl)c2c(=O)[nH]1 | - | 18 µM
c1cc(CN2CCC(C3=N[C@@H]4CCCC[C@H]4N3)CC2)ccc1CN1CCC(C2=N[C@H]3CCCC[C@@H]3N2)CC1 | - | >25 µg/mL
O=C1c2c(O)ccc(O)c2C(=O)C2C(NCCNCCO)=CC=C(NCCNCCO)C12 | - | 6.7 µM
Cc1cccc2sc(N)nc12 | - | >25 µg/mL
CC(=O)O[C@H]1C(=O)[C@@]2(C)[C@H]([C@H](OC(=O)c3ccccc3)[C@]3(O)C[C@H](OC(=O)[C@H](O)[C@@H](NC(=O)c4ccccc4)c4ccccc4)C(C)=C1C3(C)C)[C@]1(OC(C)=O)CO[C@@H]1C[C@@H]2O | - | >1000 µM

A second listing of 2 rows from above:

smiles	method	result
c1cc(CN2CCC(C3=N[C@@H]4CCCC[C@H]4N3)CC2)ccc1CN1CCC(C2=N[C@H]3CCCC[C@@H]3N2)CC1	-	>25 µg/mL
Nc1ccc(-c2nc3ncccc3o2)cc1	-	>25 µg/mL